# System: influenza virus A/PR8/34
# Settings: vero cells, m.o.i. 0.01, 600 μM PDTC, supernatants after 48 and 72 hours
smiles,measurement,value
"S=C(S)N1CCCC1 [PDTC, pyrrolidine dithiocarbamate]",reduction of virus titer compared with the control sample,more than 2 log steps
